PubChem BioAssay AID624099 | ICCB-Longwood, 2012
Assay: 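Human genes that papillomavirus E2 requires to repress the HPV18 LCR promoter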 (primary screen). System: human C33A cervical carcinoma cells (HPV-negative) stably expressing BPV1 E2 and an HPV18 LCR luciferase reporter. Reagents: siRNA pool against human genes, 40 nM. Duration: 72 h. Read-out: 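Per-well luciferase luminescence, z-scored on each plate against the plate mean and SD with control wells left out, then averaged across three replicate plates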. Direction: mean z-score and z-score: higher = stronger reporter signal, weaker E2 silencing. Rule for the call: 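Hit if mean z-score reaches 2 and two or more of three replicate z-scores also reach 2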.
In all, the deposit lists about 21,000 reagents; below is a random part of them. 497 of all reagents (2.4%) were called active. 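Higher z means weaker E2 silencing; only reporter increases were scored, and knock-downs that hurt cell survival may mask genuine repressor factors.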 No sequences are given here.

The first 2 entries, ahead of the listing:
no.	gene	PubChem SID	mean z-score	z-score, replicate A	z-score, replicate B	z-score, replicate C	Call
1	CCDC47	SID134315211	0.24	0.29	0.29	0.15	inactive
2	MECR	SID134314578	0.4	0.72	0.37	0.12	inactive

The list itself, from the start:
no.	gene	PubChem SID	mean z-score	z-score, replicate A	z-score, replicate B	z-score, replicate C	Call
1	CCDC47	SID134315211	0.24	0.29	0.29	0.15	inactive
2	MECR	SID134314578	0.4	0.72	0.37	0.12	inactive
3	DLGAP2	SID134314369	-0.25	0	-0.35	-0.4	inactive
4	BLOC1S5	SID134329266	0.76	0.5	0.82	0.96	inactive
5	SLC67A1-AS	SID134323418	1.07	1.43	0.84	0.95	inactive
6	STS	SID134314333	1.1	1.03	1.3	0.96	inactive
7	PHACTR3	SID134323046	0.87	0.78	1.21	0.64	inactive
8	CREB3	SID134321406	-0.49	-0.54	-0.59	-0.33	inactive
9	RCOR1	SID134318258	-1.21	-1.17	-1.15	-1.32	inactive
10	LOC387816 (retired record)	SID134328240	-0.91	-0.64	-1.13	-0.96	inactive
11	P2RY8	SID134311133	-0.49	-0.22	-0.73	-0.51	inactive
12	LOC401579 (retired record)	SID134329166	0.99	0.91	0.92	1.14	inactive
13	ADAP2	SID134324145	-0.69	-0.7	-0.87	-0.5	inactive
14	CHST4	SID134310651	-0.09	0.17	-0.14	-0.31	inactive
15	OGFRP1	SID134329111	0.16	0.36	0.67	-0.56	inactive
16	CAPN1	SID134311226	2.18	1.69	2.52	2.32	active
17	HNRNPA3	SID134323145	0.58	0.18	0.72	0.84	inactive
18	ANXA6	SID134315566	-0.52	-0.29	-0.64	-0.64	inactive
19	KRTAP19-6	SID134322449	-1.48	-1.29	-1.68	-1.47	inactive
20	KCNK9	SID134310657	-0.87	-0.89	-0.57	-1.14	inactive
21	ARL4C	SID134316673	-1.86	-1.87	-1.77	-1.94	inactive
22	CHST3	SID134310190	0.3	0.19	0.59	0.12	inactive
23	LOC402353 (retired record)	SID134327952	-0.14	-0.04	0.08	-0.47	inactive
